From publication PMC2771899, “Augmentation of Reverse Transcription by Integrase through an Interaction with Host Factor, SIP1/Gemin2 Is Critical for HIV-1 Infection” (PLoS ONE, 2009)

Test system: endogenous SIP1
Assay: Immunoprecipitation of IN-V5 with endogenous SIP1
Settings: IN-V5 expressed in 293T cells; anti-V5 immunoprecipitation, anti-SIP1 Western blot; 48 h; 1.0 µg plasmid (2.5 µg for Y15A, K186Q, delta-KRK, LL241,242AA)

Substance | Binding to endogenous SIP1 in 293T cells
IN1–55: NH2-terminal domain of IN | much weaker affinity compared to the C-terminal domain
IN51–212: central core domain of IN | much weaker affinity compared to the C-terminal domain
IN51–288: central core domain plus C-terminal domain of IN | significantly enhanced binding with SIP1
IN-Cter: COOH-terminal domain of IN (201–288) | bound to SIP1 efficiently
